The target in this test is human Nav1.7 (human), Q15858. Put plainly: cell-based or functional assay.

Regarding GPQCQKWMQTCDRERKCCEGFVCTLWCRKKLG (modifications not checked) [NV1G1892], the Nav1.7 IC50 (nM), FLIPR Tetra membrane depolarization is 112 nM.

Values taken from patent US20160287666A1.
